A mixed list of measured activities; the numbers were collected in NIAID ChemDB.

Common to all: whole-cell or culture tests; organism: Mycobacterium smegmatis; measure: MIC

An empty or dashed field is not shown. a–b is a range or a potency band. Rows are shuffled and stem from different studies.

SMILES | strain or isolate | value
Clc1ccc(C(Cn2ccnc2)NCc2ccc(-c3ccccc3)cc2)c(Cl)c1 | CIP 103599 | >16 µg/mL
CO/N=C(/CN1CCN(c2cc3c(cc2F)c(=O)c(C(=O)O)cn3C2CC2)CC1)c1cc2ccc(OC)cc2oc1=O | CMCC 93202 | 12.5 µg/mL
CCCCCCCCCCCCCCCC(=O)NC1CNC(=O)C(C2CCN=C(N)N2)NC(=O)/C(=C/NC(N)=O)NC(=O)C(CO)NC(=O)C(CO)NC1=O | rabinowitchi 33 | 5 µg/mL
Cc1c(CN2CCN(C)CC2)cc(-c2ccc(Cl)cc2)n1-c1ccc(Cl)cc1 | 6 strains | 3.1–25 µg/mL
O=C(Nc1ccccc1Cn1ccnc1)c1ccc(-c2ccccc2)cc1 | 103599 | >16 µg/mL
CCCCc1[nH]c2ccccc2c1C1=C(Br)C(=O)NC1=O | SG987 | 2.17 µg/mL
CN1CCN(Cc2ccc(NC(=O)/C=C/c3ccccc3)cc2)CC1 | 103599 | >16 µg/mL
Clc1ccc(C(Cn2ccnc2)NCc2cccc3ccccc23)cc1 | CIP 103599 | >16 µg/mL
O=C(Nc1cccc(Cn2ccnc2)c1)c1ccc(Cl)cc1 | 103599 | >16 µg/mL
CCCCCCCCCCCCC#CCC(=O)O | mc2155 | 20 µg/mL
CN1C(=O)C(Br)=C(c2c(-c3ccccc3)[nH]c3ccccc23)C1=O | SG987 | 12.5 µg/mL
CC[C@H](C)[C@@H](NC(=O)[C@@H](CCC(=O)O)NC(=O)[C@H](Cc1cnc[nH]1)NC(=O)[C@H](CC(C)C)NC(=O)[C@H](N)Cc1ccccc1)C(=O)N[C@H]1CCCCNC1=O | - | 0.78 µg/mL
CCCCCCCCCCCCCCCCC#CC(=O)O | mc2155 | 35 µg/mL
O=C1NC(=O)C(c2c[nH]c3ccccc23)=C1Br | SG987 | 12.5 µg/mL
CCO/N=C(/CN1CCN(c2c(F)cc3c(=O)c(C(=O)O)cn(C4CC4)c3c2OC)CC1C)c1cc2ccccc2oc1=O | CMCC 93202 | >12.5 µg/mL
O=C(Nc1cccc(Cn2ccnc2)c1)c1ccc(-c2ccccc2)cc1 | 103599 | 16 µg/mL
C[C@@H]1CN(c2c(F)c(N)c3c(=O)c(C(=O)O)cn(C4CC4)c3c2F)C[C@H](C)N1 | ATCC 607 | 0.1 µg/mL
Cc1c(C2=C(Br)C(=O)NC2=O)c2ccccc2n1C | SG987 | 12.5 µg/mL
CCCCCCCCCCCCCOc1cc(-c2ccc(F)cc2)nc2ccccc12 | ATCC 607 | 250 µg/mL
COC1=C2C(=O)O[C@@]13C[C@@H](C)C=C[C@H]3/C=C/C(=O)[C@@H](C)C[C@@H](C)C2=O | mc2155 | >80 µg/mL
CCCCCc1[nH]c2ccccc2c1C1=C(Br)C(=O)N(C)C1=O | SG987 | 12 µg/mL
CCCCCCCCCCCCOc1cc(-c2ccc(F)cc2)nc2ccccc12 | ATCC 607 | 500 µg/mL
CC(C)CCOc1ccc(NC(=S)Nc2ccc(OCCC(C)C)cc2)cc1 | mc2155 | >200 µg/mL
CCO/N=C(/CN1CCN(c2c(F)cc3c(=O)c(C(=O)O)cn(C4CC4)c3c2OC)CC1)c1cc2ccc(OC)cc2oc1=O | CMCC 93202 | 6.25 µg/mL
CCCCCCCCCCCCCOc1cc(-c2ccccc2F)nc2ccccc12 | ATCC 607 | 250 µg/mL
Cc1ccccc1NC(=O)CCc1[nH]c2ccccc2c1C1=C(Br)C(=O)NC1=O | SG987 | 25 µg/mL
C(=C\c1ccccc1)/CNC(Cn1ccnc1)c1ccccc1 | CIP 103599 | >16 µg/mL
O=C(Nc1ccc(Cn2ccnc2)cc1)c1ccc(Cl)cc1 | 103599 | >16 µg/mL
CCCCCCCCOc1cc(-c2cccc(F)c2)nc2ccccc12 | ATCC 607 | 62.5 µg/mL
NNC(=O)c1ccncc1 | MC^2 799 | 15 µg/mL
CO/N=C(/CN1CCN(c2cc3c(cc2F)c(=O)c(C(=O)O)cn3C2CC2)CC1)c1cc2ccccc2oc1=O | CMCC 93202 | 12.5 µg/mL
c1ccc(-c2ccc(CNC(Cn3ccnc3)c3ccccc3)cc2)cc1 | CIP 103599 | 16 µg/mL
CN1CCN(Cc2cccc(NC(=O)c3ccc(Cl)cc3)c2)CC1 | 103599 | >16 µg/mL
COC(=O)/C=C/C(=O)c1ccc(C(C)(C)C)cc1 | - | 8 µg/mL
CO[C@H]1/C=C/O[C@@]2(C)Oc3c(C)c(O)c4c(O)c(c(/C=N/N=c5\sc6ccccc6n5C)c(O)c4c3C2=O)NC(=O)/C(C)=C\C=C\[C@H](C)[C@H](O)[C@@H](C)[C@@H](O)[C@@H](C)[C@H](OC(C)=O)[C@@H]1C | ATCC 607 | 1.56 µg/mL
O=C1CC(c2ccccc2F)Nc2ccccc21 | ATCC 607 | 125 µg/mL
O=C(Nc1cccc(CN2CCOCC2)c1)c1ccc(Cl)cc1 | 103599 | >16 µg/mL
O=C(CN1CCN(c2cc3c(cc2F)c(=O)c(C(=O)O)cn3C2CC2)CC1)c1cc2ccc(O)cc2oc1=O | CMCC 93202 | 3.12 µg/mL
Fc1ccc(C(Cn2ccnc2)NCc2ccc(-c3ccccc3)cc2)cc1 | CIP 103599 | 16 µg/mL
CCn1cc(C(=O)O)c(=O)c2ccc(C)nc21 | mc2155 | 256 µg/mL
COc1c(N2CCN(CC(=O)c3cc4ccccc4oc3=O)CC2)c(F)cc2c(=O)c(C(=O)O)cn(C3CC3)c12 | CMCC 93202 | 6.25 µg/mL
COc1ccc(-c2[nH]c3ccccc3c2C2=C(Br)C(=O)N(C)C2=O)cc1 | SG987 | 12.5 µg/mL
CN1CCN(Cc2ccccc2NC(=O)/C=C/c2ccccc2)CC1 | 103599 | >16 µg/mL
CCCCCCCCCCCCc1ccc(NC(=O)C2=CCN(C)[C@@H]([C@H](O[C@@H]3O[C@H](CN)[C@@H](O)[C@H]3O)[C@H]3O[C@@H](n4ccc(=O)[nH]c4=O)[C@H](O)[C@@H]3O)C(=O)N2C)cc1 | ATCC 607 | 6.25 µg/mL
COc1cccc(-c2[nH]c3ccccc3c2C2=C(Br)C(=O)NC2=O)c1 | SG987 | 3.125 µg/mL
CCCCCCCCCCCCCCC#CCC(=O)O | mc2155 | 36 µg/mL
Fc1ccc(C(Cn2ccnc2)NCc2cccc3ccccc23)cc1 | CIP 103599 | 16 µg/mL
CN1CCN(Cc2ccc(NC(=O)c3ccc(Cl)cc3)cc2)CC1 | 103599 | >16 µg/mL
CCCCCCCCCCCCCCCOc1cc(-c2ccccc2F)nc2ccccc12 | ATCC 607 | 250 µg/mL
CCCCCCCCCCC#CCCCC(=O)O | mc2155 | 80 µg/mL

5 of the rows above, restated:

| SMILES | strain or isolate | value |
|---|---|---|
| CN1CCN(Cc2ccccc2NC(=O)/C=C/c2ccccc2)CC1 | 103599 | >16 µg/mL |
| CCCCCCCCOc1cc(-c2cccc(F)c2)nc2ccccc12 | ATCC 607 | 62.5 µg/mL |
| CCCCCc1[nH]c2ccccc2c1C1=C(Br)C(=O)N(C)C1=O | SG987 | 12 µg/mL |
| CN1CCN(Cc2cccc(NC(=O)c3ccc(Cl)cc3)c2)CC1 | 103599 | >16 µg/mL |
| CCCCCCCCCCCCc1ccc(NC(=O)C2=CCN(C)[C@@H]([C@H](O[C@@H]3O[C@H](CN)[C@@H](O)[C@H]3O)[C@H]3O[C@@H](n4ccc(=O)[nH]c4=O)[C@H](O)[C@@H]3O)C(=O)N2C)cc1 | ATCC 607 | 6.25 µg/mL |